For this data set, the system named is CHIKV. It is filed as cell-based, chikungunya virus. The conditions noted are these: WST-1 IC50 divided by CHIKV IC50; NT = non-toxic. For orientation: Formazan colour is commonly taken as a measure of viable cells.
Compound `C=CC/C=C\C/C=C\CCCCCCCc1cccc(O)c1C(=O)O` [(15:3)-Anacardic acid] yielded a Therapeutic index of 4.65.
The compound `CCCCn1c2cc(OC)c(Cl)cc2c2ccnc(C)c21` [AnnH14, 9-butyl-6-chloro-7-methoxy-1-methyl-9H-pyrido[3,4-b]indole] showed a Therapeutic index of 6.79.
Compound `COc1ccc2c(c1)[nH]c1c(/C=C/c3ccccc3)nccc12` [AnnH18, (E)-7-methoxy-1-(2-phenylethen-1-yl)-9H-pyrido[3,4-b]indole] yielded a Therapeutic index of 9.04.
As for `C/C=C/C/C=C/CCC(=O)[C@H]1O[C@H]1C(N)=O` [Cerulenin], the figure is 2.53; as for `CCOC(=O)C1=C(C)NC(C)=C(C(=O)OC)C1c1cccc(Cl)c1Cl` (stereo not drawn) [Felodipine], 3.73; as for `CCCCCCCCCCC[C@@H](C[C@@H]1OC(=O)[C@H]1CCCCCC)OC(=O)[C@H](CC(C)C)NC=O` [Orlistat], 10.57.
`OCCN1CCN(CCCN2c3ccccc3Sc3ccc(Cl)cc32)CC1` [Perphenazine] gave a Therapeutic index of 38.28.
As for `O=c1[nH]c2ccccc2n1C1CCN(CCCC(c2ccc(F)cc2)c2ccc(F)cc2)CC1` [Pimozide], the Therapeutic index was found to be 69.75.
With `CC(Cc1ccccc1)NCCC(c1ccccc1)c1ccccc1` (stereo not drawn) [Prenylamine] the figure was 6.91; with `CNC(=O)c1cc(Oc2ccc(NC(=O)Nc3ccc(Cl)c(C(F)(F)F)c3)cc2)ccn1` [Sorafenib], 16.42.
As for `COc1cc(N2CCC(N3CCN(C)CC3)CC2)ccc1Nc1ncc(Cl)c(Nc2ccccc2S(=O)(=O)C(C)C)n1` [TAE684], the figure is 14.28; as for KH-CB19, 3.26.

Source of the values: paper PMC4865845, “A human genome-wide loss-of-function screen identifies effective chikungunya antiviral drugs” (Nature Communications, 2016).
